From patent US12233083B2, “Methods for the use of 5′-adenosine diphosphate ribose (ADPR)” (Invirsa, Inc., priority 2018, dated 2025)

Tested on: Herpes Simplex Virus Type 1 (HSV-1), Strain KOS
Assay: Plaque inhibition assay against HSV-1 strain KOS on Vero cells
Format: cell-based
Conditions: 3 mg/ml

With “Adenosine 5′-diphosphoribose Sodium Salt” as the substance, how does the “effect on HSV-1 plaque number and plaque size” value read?
Its value is “inhibition of plaque number and plaque size”.

Some compounds may have been tested in ways that are not shown here.
